Source: a compilation of properties of binary mixtures (doi:10.1021/acs.jpcb.0c03272)

Experiment: xn = mol fraction of the nth substance listed
Conditions: 100 kPa, x2 = 0.55

O=S(=O)(F)[N-]S(=O)(=O)C(F)(F)F.[K+] + O=S(=O)(F)[N-]S(=O)(=O)F.[K+]
Conditions | electrical conductivity [S/m] | viscosity [mPa·s]
343.1 K | 0.12 | –
351.2 K | – | 778
361.9 K | – | 340
364.1 K | 0.41 | –
372 K | 0.67 | –
372.6 K | – | 198
382.1 K | – | 124.4
383.5 K | 1.05 | –
393 K | 1.45 | –
403.7 K | 2.06 | –
412.4 K | – | 43.4
422.5 K | – | 33.1
423.1 K | 3.42 | –
